In PMC9270327 (Communications Biology, 2022):
Where two headings read alike, the source gives them in different places.

By UniProt entry, the sequences of proteins in these tests, tags left out.
UniProt O15393, whole entry: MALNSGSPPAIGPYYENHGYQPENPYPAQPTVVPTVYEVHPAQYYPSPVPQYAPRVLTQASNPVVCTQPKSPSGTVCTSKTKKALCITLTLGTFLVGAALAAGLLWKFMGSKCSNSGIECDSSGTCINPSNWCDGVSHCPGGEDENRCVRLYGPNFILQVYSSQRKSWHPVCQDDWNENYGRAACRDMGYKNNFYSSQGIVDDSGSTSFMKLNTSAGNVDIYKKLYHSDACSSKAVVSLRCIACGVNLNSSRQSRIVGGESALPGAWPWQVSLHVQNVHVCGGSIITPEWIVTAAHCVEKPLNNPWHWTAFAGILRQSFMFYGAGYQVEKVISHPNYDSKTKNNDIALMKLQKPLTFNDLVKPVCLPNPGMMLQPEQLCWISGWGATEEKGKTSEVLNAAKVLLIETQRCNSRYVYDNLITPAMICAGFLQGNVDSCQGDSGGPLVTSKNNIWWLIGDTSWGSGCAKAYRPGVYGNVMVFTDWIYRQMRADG

Experiments:
[1] = system: lentiviral pseudoparticles carrying SARS-CoV-2 Delta (B.1.617.2) spike, Caco-2 cells; experiment: Pseudovirus inhibition assay, Delta spike; settings: for SARS-CoV-2 spike driven entry, Mean (0 nM = 100): Fig. 5d, Delta spike pseudoparticles
[2] = system: lentiviral pseudoparticles carrying SARS-CoV-2 Omicron BA.1 (B.1.1.529) spike, Caco-2 cells; experiment: Pseudovirus inhibition assay, Omicron BA.1 spike; settings: for SARS-CoV-2 spike driven entry, Mean (0 nM = 100): Fig. 5e, Omicron BA.1 spike pseudoparticles
[3] = system: SARS-CoV-2 Wuhan-Hu-1, Caco-2 cells; experiment: SARS-CoV-2 inhibition assay, Wuhan-Hu-1 (in-cell ELISA); settings: for SARS-CoV-2 infection, Mean (0 nM = 100): Fig. 6a, Wuhan-Hu-1
[4] = system: SARS-CoV-2 Alpha (B.1.1.7), Caco-2 cells; experiment: SARS-CoV-2 inhibition assay, VOC Alpha (in-cell ELISA); settings: for SARS-CoV-2 infection, Mean (0 nM = 100): Fig. 6c, VOC Alpha
[5] = system: SARS-CoV-2 Beta (B.1.351), Caco-2 cells; experiment: SARS-CoV-2 inhibition assay, VOC Beta (in-cell ELISA); settings: for SARS-CoV-2 infection, Mean (0 nM = 100): Fig. 6d, VOC Beta
TMPRSS2 = TMPRSS2 (Homo sapiens, UniProt O15393); settings: for TMPRSS2 activity, Mean (Fig. 2a): normalized, 0 nM = 100
[6] = molecular target: cellular TMPRSS2 activity, Caco-2 cells (Homo sapiens, UniProt O15393); settings: for cellular protease activity on Caco-2 cells, Mean (Fig. 4a): normalized, 0 nM = 100

CC(=O)N[C@H](CCCNC(=N)N)C(=O)N[C@@H](CC1CCC1)C(=O)NC(CCCNC(=N)N)C(=O)c1nc2ccccc2s1 (stereo partly drawn)
SARS-CoV-2 spike driven entry, Mean (0 nM = 100) ([1]; compound 3.2 nM): 92.9751
SARS-CoV-2 spike driven entry, Mean (0 nM = 100) ([1]; compound 16 nM): 100.33
SARS-CoV-2 spike driven entry, Mean (0 nM = 100) ([1]; compound 80 nM): 85.6739
SARS-CoV-2 spike driven entry, Mean (0 nM = 100) ([1]; compound 400 nM): 79.1202
SARS-CoV-2 spike driven entry, Mean (0 nM = 100) ([1]; compound 2000 nM): 58.8733
SARS-CoV-2 spike driven entry, Mean (0 nM = 100) ([1]; compound 10000 nM): 21.9072
SARS-CoV-2 spike driven entry, Mean (0 nM = 100) ([1]; compound 50000 nM): 4.684
IC50 ([1]; read-out: IC50 pseudotyped lentivirus Delta, Caco-2 cells, luciferase 2 days post transduction): 2.37 µM
SARS-CoV-2 spike driven entry, Mean (0 nM = 100) ([2]; compound 3.2 nM): 103.666
SARS-CoV-2 spike driven entry, Mean (0 nM = 100) ([2]; compound 16 nM): 113.557
SARS-CoV-2 spike driven entry, Mean (0 nM = 100) ([2]; compound 80 nM): 97.4995
SARS-CoV-2 spike driven entry, Mean (0 nM = 100) ([2]; compound 400 nM): 81.636
SARS-CoV-2 spike driven entry, Mean (0 nM = 100) ([2]; compound 2000 nM): 44.3593
SARS-CoV-2 spike driven entry, Mean (0 nM = 100) ([2]; compound 10000 nM): 14.8062
SARS-CoV-2 spike driven entry, Mean (0 nM = 100) ([2]; compound 50000 nM): 6.34
IC50 ([2]; read-out: IC50 pseudotyped lentivirus Omicron BA.1, Caco-2 cells, luciferase 2 days post transduction): 1.7 µM
SARS-CoV-2 infection, Mean (0 nM = 100) ([3]; compound 32 nM): 96.6009
SARS-CoV-2 infection, Mean (0 nM = 100) ([3]; compound 160 nM): 91.5577
SARS-CoV-2 infection, Mean (0 nM = 100) ([3]; compound 800 nM): 91.9279
SARS-CoV-2 infection, Mean (0 nM = 100) ([3]; compound 4000 nM): 91.0242
SARS-CoV-2 infection, Mean (0 nM = 100) ([3]; compound 20000 nM): 52.5277
SARS-CoV-2 infection, Mean (0 nM = 100) ([3]; compound 100000 nM): -3.542
IC50 ([3]; read-out: IC50 SARS-CoV-2 Wuhan-Hu-1, Caco-2 cells, in-cell ELISA 2 days post infection): 20.4 µM
SARS-CoV-2 infection, Mean (0 nM = 100) ([4]; compound 32 nM): 99.603
SARS-CoV-2 infection, Mean (0 nM = 100) ([4]; compound 160 nM): 94.5642
SARS-CoV-2 infection, Mean (0 nM = 100) ([4]; compound 800 nM): 94.1372
SARS-CoV-2 infection, Mean (0 nM = 100) ([4]; compound 4000 nM): 99.1068
SARS-CoV-2 infection, Mean (0 nM = 100) ([4]; compound 20000 nM): 64.1559
SARS-CoV-2 infection, Mean (0 nM = 100) ([4]; compound 100000 nM): -1.589
IC50 ([4]; read-out: IC50 SARS-CoV-2 Alpha, Caco-2 cells, in-cell ELISA 2 days post infection): 21.6 µM
SARS-CoV-2 infection, Mean (0 nM = 100) ([5]; compound 32 nM): 93.6693
SARS-CoV-2 infection, Mean (0 nM = 100) ([5]; compound 160 nM): 88.8083
SARS-CoV-2 infection, Mean (0 nM = 100) ([5]; compound 800 nM): 88.1239
SARS-CoV-2 infection, Mean (0 nM = 100) ([5]; compound 4000 nM): 87.5608
SARS-CoV-2 infection, Mean (0 nM = 100) ([5]; compound 20000 nM): 80.5966
SARS-CoV-2 infection, Mean (0 nM = 100) ([5]; compound 100000 nM): -1.144
IC50 ([5]; read-out: IC50 SARS-CoV-2 Beta, Caco-2 cells, in-cell ELISA 2 days post infection): 24 µM
TMPRSS2 activity, Mean (Fig. 2a) (TMPRSS2; 0.05 nM): 93.8202
TMPRSS2 activity, Mean (Fig. 2a) (TMPRSS2; 0.5 nM): 96.1798
TMPRSS2 activity, Mean (Fig. 2a) (TMPRSS2; 5 nM): 91.4607
TMPRSS2 activity, Mean (Fig. 2a) (TMPRSS2; 50 nM): 64.6067
TMPRSS2 activity, Mean (Fig. 2a) (TMPRSS2; 500 nM): 33.4831
TMPRSS2 activity, Mean (Fig. 2a) (TMPRSS2; 5000 nM): 1.685
TMPRSS2 activity, Mean (Fig. 2a) (TMPRSS2; 50000 nM): 0.5618
TMPRSS2 activity, Mean (Fig. 2a) (TMPRSS2; 500000 nM): -0.1124
Ki (TMPRSS2; read-out: Ki TMPRSS2, 30 min preincubation, substrate Boc-Gln-Ala-Arg-AMC, Ki from IC50 by Cheng–Prusoff): 0.0577 µM
cellular protease activity on Caco-2 cells, Mean (Fig. 4a) ([6]; 0.1 nM): 98.6486
cellular protease activity on Caco-2 cells, Mean (Fig. 4a) ([6]; 1 nM): 97.8378
cellular protease activity on Caco-2 cells, Mean (Fig. 4a) ([6]; 10 nM): 84.0541
cellular protease activity on Caco-2 cells, Mean (Fig. 4a) ([6]; 100 nM): 62.973
cellular protease activity on Caco-2 cells, Mean (Fig. 4a) ([6]; 1000 nM): 30.5405
cellular protease activity on Caco-2 cells, Mean (Fig. 4a) ([6]; 10000 nM): 10.2703
cellular protease activity on Caco-2 cells, Mean (Fig. 4a) ([6]; 100000 nM): 2.7027
IC50 ([6]; read-out: IC50 Caco2, cell-mediated proteolysis of Boc-Gln-Ala-Arg-AMC, 30 min preincubation): 0.234 µM
